Measured values as given in patent US20130039943A1, “NOVEL METHOD” (priority 2010, published 2013).
Where “and” joins values, the source holds several entries; their conditions need not be identical. Equal values may be shown once. Marks after values point to notes of the source that are not given here.

Assays:
Assay type in all cases: cell-based
[1] = tested on: H5N1 influenza virus produced on EB66 cells
Hepatitis A Virus (HAV) = tested on: Hepatitis A Virus (HAV)
[2] = tested on: Porcine Pseudorabies Virus (PRV)
[3] = tested on: Murine Leukaemia Virus (MuLV)
[4] = tested on: Influenza virus Malaysia B strain produced on MDCK cells
[5] = tested on: Influenza virus produced on MDCK cells
[6] = tested on: Influenza virus Wisconsin A strain produced on MDCK cells

Molecule	LVR [1]	log TCID50/ml [1]	LVR (Hepatitis A Virus (HAV)) [log]	log TCID50/ml (Hepatitis A Virus (HAV)) [log TCID50/ml]	LVR [2] [log]	log TCID50/ml [2] [log TCID50/ml]	LVR [3]	log TCID50/ml [4]	viral titration reduction [5]	log TCID50/ml [6]
Triton X-100	3.8*** log	5.2 log TCID50/ml and 5.0 log TCID50/ml	–	–	–	–	–	–	–	–
O=C1CCO1 [BPL, beta-propiolactone]	–	–	3.8	1.5	3.4	2.6	2.7 log and 2.8 log and 1.6 log	≦1.8 log TCID50/ml	about 8 logs	≦0.8 log TCID50/ml
